Pooled drug test results. Numbers come from NIAID ChemDB, via PubChem.

Shared fields: cytotoxicity tests; cells: HeLa; endpoint: CC50

CCn is the concentration with n% toxicity to the cells.

SMILES,read by,value
CCOC(=O)/C=C/[C@H](C[C@@H]1CCNC1=O)NC(=O)[C@@H](CC(=O)[C@@H](NC(=O)c1cc(C)on1)C(C)C)Cc1ccc(F)cc1,,>1000 µM
CN(C)C(=O)c1c(O)c2cccnc2n(O)c1=O,,<100 µM
Cc1ccc(C(=O)CCCCCCOc2ccc(C3=NC(C)(C)CO3)cc2)s1,,16 µM
CS(=O)(=O)c1ccc(NCc2ccc(Br)cc2)nc1,,>10 µg/mL
COc1ccc2[nH]c3c(c2c1)CCN1OCSCC(N)[C@@H]31,,0.4 µg/mL
CCOC(=O)C(N)CCSC[C@H]1O[C@@H](n2ccc3c(N)ncnc32)[C@H](O)[C@@H]1O,,100 µg/mL
CNC(=O)c1ncc(OC)c2c(C(=O)C(=O)N3CCN(C(=O)c4ccccc4)CC3)c[nH]c12,trypan blue,>100 µM
CS(=O)(=O)c1ccc(NCCc2ccc(Cl)c(Cl)c2)nc1,,>10 µg/mL
Cc1ccc(C(=O)CCCCCCOc2ccc(C3=NCC(C)O3)cc2)s1,,>260 µM
CC[n+]1c(-c2ccccc2)c2cc(NC(N)=O)ccc2c2ccc(N)cc21,,>10 µM
COc1cc(O)c2c(=O)cc(-c3ccc(OC)c(OC)c3)oc2c1,,168 µg/mL
CC[n+]1c(-c2ccccc2)c2cc(N)ccc2c2ccc(N)cc21,,<10 µM
CCOC(=O)c1c(O)c2c(-c3ccccc3)ccnc2n(O)c1=O,,0.53 µM
CC(C)(C)c1ccc2c(c1)CSSC2,MTT,125.2 µM
CCOC(=O)/C=C/[C@H](CCC(N)=O)NC(=O)[C@H](Cc1ccccc1)NC(=O)[C@@H](NC(=O)OCc1ccccc1)C(C)(C)C,,>100 µM
COc1cccc2[nH]cc(C(=O)C(=O)N3CCN(C(=O)c4ccccc4)CC3C)c12,XTT,>300 µM
COc1cc(OC[C@H]2CC[C@@H](COCc3ccccc3)O2)nc(N)n1,,171 µM
CC1COc2c(N3CCN(C)CC3)c(F)cc3c(=O)c(C(=O)O)cn1c23,,375 µg/mL
O=c1cc(NC2CCc3ccccc32)c2cccnc2n1O,,0.034 µM
CC1CN(C(=O)c2ccccc2)CC(C)N1C(=O)C(=O)c1c[nH]c2cccc(F)c12,XTT,206 µM
CS(=O)(=O)c1ccc(Cc2ccc(Cl)c(Cl)c2)nc1,,>10 µg/mL
CN(C)CC[C@H](Nc1cc(=O)n(O)c2ncccc12)c1ccccc1,,0.24 µM
COS(=O)(=O)O.N=C(N)c1ccc2cc(OC(=O)c3ccc(N=C(N)N)cc3)ccc2c1,MTT,36 µg/mL
CSc1ccc(Cc2ccc(S(C)(=O)=O)cn2)cc1,,>10 µg/mL
Nc1cc(OC[C@H]2CC[C@@H](COCc3ccccc3)O2)ncn1,,208 µM
O=C(C(=O)N1CCN(C(=O)c2ccccc2)CC1)c1c[nH]c2c(-n3cncn3)ccnc12,trypan blue,>100 µM
c1ccc(COC[C@H]2CC[C@@H](COc3cc(OC[C@H]4CC[C@@H](COCc5ccccc5)O4)ncn3)O2)cc1,,175 µM
COc1cnc(-n2ccc(C)n2)c2[nH]cc(C(=O)C(=O)N3CCN(C(=O)c4ccccc4)CC3)c12,trypan blue,>100 µM
CCOC(=O)/C=C/[C@H](CCC(N)=O)NC(=O)[C@H](Cc1ccccc1)NC(=O)[C@H](CC(C)C)NC(=O)SCc1ccccc1,,>320 µM
CC(C(=O)O)[C@H]1O[C@@H](CC(=O)c2ccc(N)cc2)[C@H](C)C[C@H]1C,,>100 µg/mL
CC1CN(C(=O)c2ccccc2)C(C)CN1C(=O)C(=O)c1c[nH]c2cccc(F)c12,XTT,>300 µM
CCOC(=O)/C=C/c1cc(CC)cnc1Cl,MTT,9 µM
c1ccc(Oc2ccc3c(c2)CSSC3)cc1,MTT,36 µM
CC(=O)NC(CCSC[C@H]1O[C@@H](n2ccc3c(N)ncnc32)[C@H](O)[C@@H]1O)C(=O)OC(C)C,,200 µg/mL
CS(=O)(=O)c1ccc(Cc2ccc(S(C)(=O)=O)cn2)cc1,,>10 µg/mL
CC(Sc1ncnc2c1cnn2CCCCO)C(N)=O,,>400 µg/mL
CCCCOC(=O)C(N)CCSC[C@H]1O[C@@H](n2ccc3c(N)ncnc32)[C@H](O)[C@@H]1O,,100 µg/mL
CCOC(=O)/C=C/c1cc(-c2ccccc2)cnc1Cl,MTT,28 µM
Nc1ncnc2c1ncn2C[C@H](O)CO,,>400 µg/mL
Nc1nccc(OC[C@@H]2O[C@H](CO)[C@@H](O)[C@H]2O)n1,,>250 µM
CN(C)c1ccc2c(c1)CSSC2,MTT,>473.1 µM
C[C@@H]1CN(C(=O)C(=O)c2c[nH]c3c(-n4nc5ccccc5n4)cc(Cl)nc23)CCN1C(=O)c1ccccc1,trypan blue,>100 µM
Nc1nc(OC[C@H]2CC[C@@H](COCc3ccccc3)O2)cc(OC[C@@H]2CC[C@H](COCc3ccccc3)O2)n1,,65 µM
COc1ccc(-c2cc(=O)c3c(O)cc(O)cc3o2)cc1,,88 µg/mL
COc1cnc(-n2cnc(C(=O)N(C)C)n2)c2[nH]cc(C(=O)C(=O)N3CCN(C(=O)c4ccccc4)CC3)c12,trypan blue,>100 µM
Nc1ccnc(OC[C@H]2CC[C@@H](CO)O2)n1,,230 µM
CCOC(=O)c1ccc(OC(=O)CCCCCN=C(N)N)cc1.COS(=O)(=O)O,MTT,120 µg/mL
CCOC(=O)/C=C/[C@H](CCC(N)=O)NC(=O)[C@H](Cc1ccccc1)NC(=O)[C@@H](NC(=O)OCc1ccccc1)C(C)C,,>100 µM
Nc1nccc(OC[C@H]2CC[C@@H](CO)O2)n1,,>250 µM
Cc1ccc(C(=O)CCCCOc2ccc(C3=N[C@@H](C)CO3)cc2)s1,,13 µM
Cc1cnc(Cl)c(/C=C/C(=O)c2ccccc2)c1,MTT,38 µM
Fc1cccc2c1CSSC2,MTT,284 µM
Cc1ccc(C(=O)CCCCOc2ccc(C3=NC(C)CO3)cc2)s1,,13 µM
c1ccc2c(c1)CSSC2,MTT,271 µM
CC(C)CS[C@@H]1C=C[C@H](n2cnc3c(N)ncnc32)C1,,16–80 µg/mL
CC(/C=C/C(=O)O)[C@H]1O[C@@H](CC(=O)c2ccc(N)cc2)[C@H](C)C[C@H]1C,,>100 µg/mL
CC(Sc1ncnc2c1cnn2COCCO)C(N)=O,,>400 µg/mL
CC(=O)/C=C/c1cc(-c2ccccc2)cnc1Cl,MTT,104 µM
CS(=O)(=O)c1ccc(Cc2ccc(F)cc2)nc1,,>10 µg/mL
Cc1cc(NCCCCCCCCNc2cc(C)nc3cc(N(C)C)ccc23)c2ccc(N(C)C)cc2n1,MTT,>500 µg/mL
CCS(=O)(=O)c1ccc(NCc2ccc(Cl)cc2)nc1C#N,,>10 µg/mL
COCC(=O)NC(CCSC[C@H]1O[C@@H](n2ccc3c(N)ncnc32)[C@H](O)[C@@H]1O)C(=O)OC(C)C,,400 µg/mL
NC(=O)CSc1ncnc2c1cnn2CCCCO,,>400 µg/mL
Cc1cccc2c1CSSC2,MTT,267.4 µM
Nc1ncnc2c([C@H]3C[C@H](O)[C@@H](CO)O3)[nH]nc12,,>400 µg/mL
CCCC1CN(C(=O)c2ccccc2)CCN1C(=O)C(=O)c1c[nH]c2cccc(F)c12,XTT,94 µM
O=[N+]([O-])c1ccc2c(c1)CSSC2,MTT,40.8 µM
CNC(=O)c1ccn(-c2ncc(OC)c3c(C(=O)C(=O)N4CCN(C(=O)c5ccccc5)CC4)c[nH]c23)n1,trypan blue,>100 µM
CN(Cc1cccc(Cn2cncn2)c1)c1cc(=O)n(O)c2ncccc12,,<100 µM
CCOC(=O)/C=C/[C@H](CCC(N)=O)NC(=O)[C@H](Cc1ccccc1)NC(=O)[C@H](CC(C)C)NC(=O)OC,,>100 µM
COc1cc2c(cc1OC)[C@@H]1C(N)CSCON1CC2,,34 µg/mL

For reference, 7 entries again:

| SMILES | read by | value |
|---|---|---|
| CC(C(=O)O)[C@H]1O[C@@H](CC(=O)c2ccc(N)cc2)[C@H](C)C[C@H]1C |  | >100 µg/mL |
| Cc1ccc(C(=O)CCCCCCOc2ccc(C3=NC(C)(C)CO3)cc2)s1 |  | 16 µM |
| CCCC1CN(C(=O)c2ccccc2)CCN1C(=O)C(=O)c1c[nH]c2cccc(F)c12 | XTT | 94 µM |
| CCOC(=O)/C=C/[C@H](CCC(N)=O)NC(=O)[C@H](Cc1ccccc1)NC(=O)[C@@H](NC(=O)OCc1ccccc1)C(C)C |  | >100 µM |
| CSc1ccc(Cc2ccc(S(C)(=O)=O)cn2)cc1 |  | >10 µg/mL |
| CC(Sc1ncnc2c1cnn2COCCO)C(N)=O |  | >400 µg/mL |
| CCOC(=O)/C=C/[C@H](C[C@@H]1CCNC1=O)NC(=O)[C@@H](CC(=O)[C@@H](NC(=O)c1cc(C)on1)C(C)C)Cc1ccc(F)cc1 |  | >1000 µM |

Blank or dashed fields: not listed here. Two numbers with a dash give a range or band. Neighbouring rows are from separate reports.